A mixed list of measured activities; the numbers were collected in NIAID ChemDB.

Shared fields: growth or infection tests; organism: HIV-1

a–b is a range or a potency band.

structure,setting,mutations,strain or isolate,cells,measure,read by,value
Cc1cn([C@H]2C[C@H](N=[N+]=[N-])[C@@H](CO)O2)c(=O)[nH]c1=O,-,-,IIIB,C8166,EC50,p24,0.02 µg/mL
Cc1cc(C#N)cc(C)c1Oc1nc(N/N=C/C2CCN(Cc3ccc(C#N)cc3)CC2)nc2ccsc12,-,-,IIIB,MT-4,EC50,MTT,5.85 µM
C1CNCCNCC(C2CNCCNCCCNCCNC2)CNCCNC1,-,-,IIIB,MT-4,EC50,cytopathic effect / MTT,0.33 µg/mL
O=C(/C=C/c1ccc(O)c(O)c1)c1ccccc1,-,-,-,MT-4,EC50,cytopathic effect / MTT,>1.7 µM
Cc1ccc(S(=O)(=O)N[C@@H](CCCCN)C(=O)CCl)cc1,-,-,IIIB,MOLT-4,EC50,p24,6 µM
COc1ccc(/C=C/C(=O)/C=C(O)/C=C/c2ccc(OC)c(OC)c2)cc1OC,-,-,-,MT-4,EC50,cytopathic effect / MTT,>4.1 µM
CCn1cc(C(=O)O)c(=O)c2cc(F)c(N3CCN(CC(=O)OC[C@H]4O[C@@H](n5cc(C)c(=O)[nH]c5=O)C[C@@H]4N=[N+]=[N-])CC3)cc21,-,-,-,CEM,EC50,cytopathic effect / XTT,0.523 µM
CC12CCC3C(CCC4CC(O)CCC43C)C1CC(F)C2=O,-,-,IIIB,PBL(PHA-M) + PBL,EC50,p24 / ELISA,8.8 µM
COc1ccccc1Oc1nc(Nc2ccc(C#N)cc2)nc2ccccc12,-,K103N + Y181C,-,MT-4,EC50,MTT,>149 µM
NCCCN1CCCN(CCCN)CCCN(CCCN)CCN(CCCN)CCC1,-,-,LAV,MT-4,EC50,syncytia,10 µM
Nc1nc2c(ncn2[C@H]2CC[C@@H](CO)O2)c(=O)[nH]1,-,-,LAV-Bru,CEM13 + CEM,EC50,ELISA,<10 µM
C#Cc1ccc(Nc2nccc(Oc3c(C)cc(-c4cn(-c5ccc(C(=O)OC)cc5)nn4)cc3C)n2)cc1,-,L100I,IIIB,MT-4,EC50,MTT,1.04 µM
CCC(=O)c1ccc(F)c([C@@H]2C[C@@H]2NC(=O)Nc2ccc(C#N)cn2)c1O,-,-,7324-1,PBMC,EC50,absorbance,0.0001 µM
NCCCCCN1CCCN(CCCCCN)CCN(CCCCCN)CCCN(CCCCCN)CC1,-,-,LAV,MT-4,EC50,syncytia,5 µM
CC[C@@]1(O)C(=O)OCc2c1cc1n(c2=O)Cc2cc3ccccc3nc2-1,-,-,-,MT-4,EC50,cytopathic effect / MTT,>0.01 µM
COC1(C)C(=O)NC(=O)N([C@H]2C=C[C@@H](CO)O2)[C@@H]1O,-,-,RF,CEM,EC50,cytopathic effect / XTT,7.82 µM
Cc1cc(C#N)cc(C)c1Oc1nc(N/N=C/C2CCN(Cc3cccc(C(N)=O)c3)CC2)nc2ccsc12,-,-,IIIB,MT-4,EC50,MTT,>4.68 µM
O=C(NCCCN1CCCN(CCCNC(=O)OCc2ccccc2)CCN(CCCNC(=O)OCc2ccccc2)CCCN(CCCNC(=O)OCc2ccccc2)CC1)OCc1ccccc1,-,-,LAV,MT-4,EC50,syncytia,>50 µM
CCn1c(=O)c(C)cn([C@@H]2O[C@H](CO[Si](C)(C)C(C)(C)C)C3(OS(=O)(=O)C=C3N)[C@H]2O[Si](C)(C)C(C)(C)C)c1=O,-,-,IIIB,CEM,EC50,syncytia,0.09 µM
C#Cc1ccc(Nc2nccc(Oc3c(C)cc(-c4cn(CCc5ccccc5)nn4)cc3C)n2)cc1,-,K103N,IIIB,MT-4,EC50,MTT,0.42 µM
O=C1C(=Cc2ccc(O)c(O)c2)C(=O)c2ccccc21,-,-,-,MT-4,EC50,cytopathic effect / MTT,>32 µM
CCO[C@@H]1N([C@H]2C=C[C@@H](CO)O2)C(=O)NC(=O)[C@@]1(C)Br,-,-,RF,CEM,EC50,cytopathic effect / XTT,>14 µM
CCCCCCCCCCCCCC(=O)OC[C@@H](COP(=O)(O)OC[C@@H]1CC[C@H](n2cc(C)c(=O)[nH]c2=O)O1)OC(=O)CCCCCCCCCCCCC,-,-,IIIB,MT-4,EC50,ELISA,<10 µM
Nc1ccn([C@H]2CC[C@@H](CO)O2)c(=O)n1,-,-,IIIB,CEM,EC50,syncytia,0.035 µM
O=C(/C=C/c1ccc(O)c(O)c1)c1ccc(O)cc1,-,-,-,MT-4,EC50,cytopathic effect / MTT,>4.4 µM
NC(N)=NCCC[C@H](NC(=O)[C@@H](N)Cc1ccc2ccccc2c1)C(=O)C1CCN(C(=O)c2ccc(F)cc2)CC1,-,-,-,MT-4,EC50,cytopathic effect,7.7 µM
Cc1c(Cc2c(F)cccc2F)nc(SC2CCCC2)[nH]c1=O,-,-,IIIB,MT-4,EC50,p24,<0.15 µM
CO[C@H]1N([C@H]2C=C[C@@H](CO)O2)C(=O)NC(=O)[C@]1(C)Br,-,-,RF,CEM,EC50,cytopathic effect / XTT,54.6 µM
Cc1cn([C@H]2C[C@H](N=[N+]=[N-])[C@@H](CO)O2)c(=O)[nH]c1=O,-,-,IIIB Laboratory strain,MT-4,EC50,cytopathic effect,0.007 µM
O=C(NCCCCCN1CCCN(CCCCCNC(=O)OCc2ccccc2)CCCN(CCCCCNC(=O)OCc2ccccc2)CCN(CCCCCNC(=O)OCc2ccccc2)CCC1)OCc1ccccc1,-,-,LAV,MT-4,EC50,syncytia,>1 µM
C#Cc1ccc(Nc2nccc(Oc3c(C)cc(-c4cn(-c5ccc(C(=O)O)cc5)nn4)cc3C)n2)cc1,-,Y188L,IIIB,MT-4,EC50,MTT,6.22 µM
Cc1ccnc2c1NC(=O)c1cccnc1N2C1CC1,-,-,IIIB,MT-4,EC50,MTT,0.281 µM
C/C=C(/C)C(=O)O[C@H]1c2cc3c(c4c2C2(CO4)C(=O)C(OC)=C(OC)[C@H]4O[C@@H]([C@@H](C)[C@H]1C)C42O)OCO3,-,-,-,C8166,EC50,MTT,64.4 µg/mL
CC(=O)NCC(=O)N[C@H](C(=O)N[C@@H](Cc1ccccc1)C(=O)C(F)(F)CCc1ccccc1)C(C)C,-,-,IIIB,MT-4,EC50,-,8.6 µM
CCCCCCCCCCCCCC(=O)OC[C@@H](COP(=O)(O)OC[C@@H]1CC[C@H](n2ccc(N)nc2=O)O1)OC(=O)CCCCCCCCCCCCC,-,-,LAV-Bru,CEM13 + CEM,EC50,ELISA,<10 µM
Cc1cc(C#N)cc(C)c1Oc1nc(N/N=C/C2CCN(Cc3ccc([N+](=O)[O-])cc3)CC2)nc2ccsc12,-,-,IIIB,MT-4,EC50,MTT,>13.4 µM
O=c1[nH]cnc2c1ncn2[C@H]1CC[C@@H](CO)O1,-,RT-E138K,IIIB,CEM,EC50,syncytia,10 µM
CC(C)[C@H](NC(=O)NCc1ccccn1)C(=O)N[C@@H](Cc1ccccc1)C(=O)C(F)(F)CCc1ccccc1,-,-,IIIB,MT-4,EC50,-,7.6 µM
NC(N)=NCCC[C@H](NC(=O)[C@@H](N)Cc1ccc2ccccc2c1)C(=O)c1ccc(CNC(=O)c2ccc(C(F)(F)F)cc2)cc1,-,-,-,MT-4,EC50,cytopathic effect,6 µM
Cc1cn([C@H]2C[C@H](N=[N+]=[N-])[C@@H](CO)O2)c(=O)[nH]c1=O,3 d,-,BaL,HUT/CCR5 + HUT,EC50,p24,<0.5 µM
Cc1cn([C@H]2C[C@H](N=[N+]=[N-])[C@@H](COC(=O)c3cccnc3)O2)c(=O)[nH]c1=O,-,-,IIIB Laboratory strain,MT-4,EC50,cytopathic effect,0.037 µM
Cc1cc(C#N)cc(C)c1Oc1nc(N/N=C/C2CCN(Cc3ccncc3)CC2)nc2ccsc12,-,-,IIIB,MT-4,EC50,MTT,>5.52 µM
Nc1nc2c(ncn2[C@H]2C=C[C@@H](CO)C2)c(=O)[nH]1,-,-,IIIB,PBMC,EC50,RT activity,0.05–0.15 µM
Cc1cc(C#N)cc(C)c1Oc1nc(Nc2ccc(C#N)cc2)nc(N)c1Br,-,-,96USNG31,PBMC,EC50,absorbance,0.0002 µM
C=C1[C@H](CO)[C@@H](O)C[C@@H]1n1cnc2c(=O)[nH]c(N)nc21,-,-,IIIB,MT-4,EC50,MTT,0.004 µM
C#Cc1ccc(Nc2nccc(Oc3c(C)cc(-c4cn(Cc5ccc(C(N)=O)cc5)nn4)cc3C)n2)cc1,-,F227L and V106A,IIIB,MT-4,EC50,MTT,>13.84 µM
C[C@H](NC(=O)[C@H](CCCN=C(N)N)NC[C@H](CCCN=C(N)N)NC(=O)[C@@H](N)Cc1ccc(O)cc1)c1cccc2ccccc12,-,-,-,MT-4,EC50,cytopathic effect,26 µM
C#Cc1ccc(Nc2nccc(Oc3c(C)cc(-c4cn(-c5cccc(C(=O)OC)c5)nn4)cc3C)n2)cc1,-,-,IIIB,MT-4,EC50,MTT,0.02 µM
COc1ccccc1-c1noc(=O)n1-c1cccc(C(F)(F)F)c1,-,-,NLHXADA R5 recombinant wild type,MDM,EC50,p24,<1 µM
O=C(/C=C/c1ccc(O)c(O)c1)c1ccc(O)cc1O,-,-,-,MT-4,EC50,cytopathic effect / MTT,>3.3 µM
CC(C)=CCN1Cc2cc(Cl)cc3[nH]c(=S)n(c23)C[C@@H]1C,-,RT-E138K,IIIB,CEM,EC50,syncytia,0.16 µM
Nc1ccn([C@H]2CC[C@@H](CO)O2)c(=O)n1,-,-,IIIB,MT-2,EC50,cytopathic effect / MTT,5.924 µM
Cc1cc(C)cc(Sc2c(C(C)C)c(=O)[nH]c(=S)n2COCCO)c1,-,RT-E138K,IIIB,CEM,EC50,syncytia,0.01 µM
Cc1ccnc2c1NC(=O)c1cccnc1N2C1CC1,-,RT-L74V A98G,-,MT-4,EC95,-,3 µM
CN1C(=O)N=S(=O)(c2ccccc2)c2ccccc21,-,-,IIIB,CEM + CEM-SS,EC50,cytopathic effect / XTT,>160 µM
C#Cc1ccc(Nc2nccc(Oc3c(C)cc(-c4cn(Cc5ccc(O)cc5)nn4)cc3C)n2)cc1,-,L100I,IIIB,MT-4,EC50,MTT,≥0.35 µM
CO[C@@H]1N([C@H]2C=C[C@@H](CO)O2)C(=O)NC(=O)[C@@]1(C)Cl,-,-,RF,CEM,EC50,cytopathic effect / XTT,375 µM
CCC(c1cc(=O)[nH]c(SC2CCCC2)n1)c1c(F)cccc1F,-,-,IIIB,MT-4,EC90,p24,0.042 µM
CO[C@H]1N([C@H]2C=C[C@@H](CO)O2)C(=O)NC(=O)[C@]1(C)I,-,-,RF,CEM,EC50,cytopathic effect / XTT,0.376 µM
C1CNCCNCCCN[C@@H]([C@H]2CNCCCNCCNCCCN2)CNC1,-,-,IIIB,MT-4,EC50,cytopathic effect / MTT,0.12 µg/mL
Cc1cc(C#N)cc(C)c1Oc1nc(N/N=C/c2ccc(C#N)cc2F)nc2ccsc12,-,-,IIIB,MT-4,EC50,MTT,0.0413 µM
O=S1(c2ccccc2)=NC(=S)Nc2ccccc21,-,-,IIIB,CEM + CEM-SS,EC50,cytopathic effect / XTT,1.39 µM
Nc1ccn([C@H]2CC[C@@H](CO)O2)c(=O)n1,-,-,IIIB,MT-4,EC50,ELISA,<10 µM
COC(=O)[C@H]1[C@@H]2C[C@@H](O[C@@H]3O[C@H](C)[C@@H](O)[C@H](N)[C@@H]3O)/C=C/C=C/C=C/C=C/C=C/C=C/C=C/[C@H](C)[C@@H](O)[C@H](C)[C@H](C)OC(=O)C[C@H](O)C[C@H](O)[C@@H](O)CC[C@H](O)C[C@H](O)C[C@](O)(C[C@@H]1O)O2,-,-,IIIB,H9,EC50,antigen,<5 µg/mL
Cc1cn([C@@H]2O[C@H](CO[Si](C)(C)C(C)(C)C)[C@@]3(OS(=O)(=O)C=C3N)[C@H]2O[Si](C)(C)C(C)(C)C)c(=O)[nH]c1=O,-,RT-E138K,IIIB,CEM,EC50,syncytia,3.1 µM
CC(=O)N[C@@H](CS)C(=O)O,-,-,-,U1,EC50,p24,<3000 µM
COC1=C(OC)C(=O)C23COc4c5c(cc(c42)[C@@H](OC(C)=O)[C@@H](C)[C@@H](C)CC3=C1)OCO5,-,-,-,C8166,EC50,MTT,7.5 µg/mL
C[C@H](NC[C@H](CCCN=C(N)N)NC(=O)[C@H](CCCN=C(N)N)NC(=O)c1ccc(F)cc1)c1cccc2ccccc12,-,-,-,MT-4,EC50,cytopathic effect,11 µM
C#Cc1ccc(Nc2nccc(Oc3c(C)cc(-c4cn(Cc5ccccc5)nn4)cc3C)n2)cc1,-,E138K,IIIB,MT-4,EC50,MTT,0.24 µM
C=C1C([C@@H](C)[C@H]2CC=C(C)C(=O)O2)=CC[C@]2(C)[C@H]1C[C@]1(O)C=C3C=CC(=O)OC(C)(C)[C@@H]3[C@H](OC(C)=O)C[C@@H]21,-,-,-,C8166,EC50,MTT,3.8 µg/mL
O=c1cc(Cc2c(F)cccc2F)nc(SC2CCCC2)[nH]1,-,-,IIIB,MT-4,EC50,p24,<0.08 µM
C#Cc1ccc(Nc2nccc(Oc3c(C)cc(-c4cn(Cc5ccc([N+](=O)[O-])cc5)nn4)cc3C)n2)cc1,-,L100I,IIIB,MT-4,EC50,MTT,1.52 µM

For reference, 6 entries again:

structure,setting,mutations,strain or isolate,cells,measure,read by,value
COC(=O)[C@H]1[C@@H]2C[C@@H](O[C@@H]3O[C@H](C)[C@@H](O)[C@H](N)[C@@H]3O)/C=C/C=C/C=C/C=C/C=C/C=C/C=C/[C@H](C)[C@@H](O)[C@H](C)[C@H](C)OC(=O)C[C@H](O)C[C@H](O)[C@@H](O)CC[C@H](O)C[C@H](O)C[C@](O)(C[C@@H]1O)O2,-,-,IIIB,H9,EC50,antigen,<5 µg/mL
C#Cc1ccc(Nc2nccc(Oc3c(C)cc(-c4cn(Cc5ccc([N+](=O)[O-])cc5)nn4)cc3C)n2)cc1,-,L100I,IIIB,MT-4,EC50,MTT,1.52 µM
COC1(C)C(=O)NC(=O)N([C@H]2C=C[C@@H](CO)O2)[C@@H]1O,-,-,RF,CEM,EC50,cytopathic effect / XTT,7.82 µM
C=C1C([C@@H](C)[C@H]2CC=C(C)C(=O)O2)=CC[C@]2(C)[C@H]1C[C@]1(O)C=C3C=CC(=O)OC(C)(C)[C@@H]3[C@H](OC(C)=O)C[C@@H]21,-,-,-,C8166,EC50,MTT,3.8 µg/mL
O=S1(c2ccccc2)=NC(=S)Nc2ccccc21,-,-,IIIB,CEM + CEM-SS,EC50,cytopathic effect / XTT,1.39 µM
C[C@H](NC(=O)[C@H](CCCN=C(N)N)NC[C@H](CCCN=C(N)N)NC(=O)[C@@H](N)Cc1ccc(O)cc1)c1cccc2ccccc12,-,-,-,MT-4,EC50,cytopathic effect,26 µM

Rows are shuffled and stem from different studies. Blank or dashed fields: not listed here. ECn: concentration that inhibits the pathogen or its effect by n%.